# Fitness effects across NS2B and the NS3 protease domain of Zika virus

From the data files of Ni et al. 2025, doi:10.1038/s41467-025-63602-z.

Protein: NS2B and the protease part of NS3 of Zika virus strain MR766. Positions count along the chain below; NS2B spans 2-131 and NS3 starts at 132.
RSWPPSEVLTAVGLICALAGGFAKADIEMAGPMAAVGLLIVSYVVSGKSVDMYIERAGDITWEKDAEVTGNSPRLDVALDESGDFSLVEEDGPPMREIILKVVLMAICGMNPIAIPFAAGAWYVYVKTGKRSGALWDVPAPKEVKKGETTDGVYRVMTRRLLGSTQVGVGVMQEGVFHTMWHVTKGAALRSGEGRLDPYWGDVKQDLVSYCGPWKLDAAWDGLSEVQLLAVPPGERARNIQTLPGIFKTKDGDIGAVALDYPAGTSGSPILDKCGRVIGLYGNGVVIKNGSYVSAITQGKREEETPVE

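Mutant virus pools were grown in human Huh-7.5 cells. Sequencing of three replicate libraries (two for positions 207-308) was averaged into one effect per change. The study looked for pockets that tolerate few changes, as a guide for inhibitor design.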

Scale: log2 effect, wild type = 0; the lower, the more harmful to the virus.
Each entry names the wild-type residue, its position and the residue put in its place.
The region was split into three libraries (1-103, 104-206, 207-308).

{"change": "R1C", "log2 effect": -6.98}
{"change": "R1G", "log2 effect": -8.44}
{"change": "C16E", "log2 effect": -5.60}
{"change": "G20K", "log2 effect": -5.42}
{"change": "A25V", "log2 effect": 1.16}
{"change": "A35T", "log2 effect": -2.05}
{"change": "L38S", "log2 effect": -7.38}
{"change": "L39I", "log2 effect": -2.49}
{"change": "K48C", "log2 effect": -5.31}
{"change": "D65N", "log2 effect": -1.87}
{"change": "T69D", "log2 effect": -5.84}
{"change": "D76G", "log2 effect": -7.69}
{"change": "D76V", "log2 effect": -0.76}
{"change": "V77I", "log2 effect": -6.16}
{"change": "E81W", "log2 effect": -5.55}
{"change": "P93S", "log2 effect": -5.99}
{"change": "M110E", "log2 effect": -5.32}
{"change": "N111*", "log2 effect": -5.23}
{"change": "N111R", "log2 effect": -2.88}
{"change": "I113V", "log2 effect": -0.58}
{"change": "I115H", "log2 effect": -6.16}
{"change": "V126P", "log2 effect": -6.86}
{"change": "V126Q", "log2 effect": -0.12}
{"change": "T149R", "log2 effect": -3.61}
{"change": "T150*", "log2 effect": -6.01}
{"change": "R159P", "log2 effect": -6.68}
{"change": "R160C", "log2 effect": -1.69}
{"change": "R160M", "log2 effect": -3.44}
{"change": "L161T", "log2 effect": -5.72}
{"change": "L162A", "log2 effect": -5.88}
{"change": "S164C", "log2 effect": 0.47}
{"change": "V171Q", "log2 effect": -5.31}
{"change": "H182C", "log2 effect": -3.36}
{"change": "S209W", "log2 effect": -5.12}
{"change": "Y210T", "log2 effect": -7.80}
{"change": "W214M", "log2 effect": -7.74}
{"change": "L216D", "log2 effect": -6.34}
{"change": "V226E", "log2 effect": -5.41}
{"change": "G234F", "log2 effect": -4.02}
{"change": "F247V", "log2 effect": -6.87}
{"change": "V257I", "log2 effect": -4.60}
{"change": "V257S", "log2 effect": -6.39}
{"change": "G264V", "log2 effect": -6.76}
{"change": "S266F", "log2 effect": -5.61}
{"change": "G275I", "log2 effect": -3.78}
{"change": "G275Y", "log2 effect": -3.48}
{"change": "Y281E", "log2 effect": -5.06}
{"change": "G290F", "log2 effect": -5.51}
{"change": "V293K", "log2 effect": -4.63}
{"change": "K300L", "log2 effect": -4.44}
{"change": "R301F", "log2 effect": -1.26}

Position 1 still belongs to NS2A. In the paper, -1 or higher counts as tolerated.
Stop codons (*) centre on -7 and mark the level of dead virus.
Values above 0 are not proof of better growth: six high scorers were tested one by one, five grew less well than wild type and one about as well.